Columns and labels:
Influenza A virus [1] = assay: Antiviral activity against adamantane-, oseltamivir-, zanamivir-susceptible Influenza A virus (A/Swine/Texas/14/2008 (H1N1)) harboring M2 V27T, V28D mutant infected in MDCK cells assessed as inhibition of viral replication after 3 days by microscopic analysis using crystal violet stain
Influenza A virus [2] = assay: Antiviral activity against adamantane-, oseltamivir-, zanamivir-susceptible Influenza A virus (A/swine/Michigan/09/2007 (H1N2)) harboring M2 V27I, V28D mutant infected in MDCK cells assessed as inhibition of viral replication after 3 days by microscopic analysis using crystal violet stain

In the case of `NC(=O)c1nc(F)cnc1O` [FAVIPIRAVIR], the EC50 (Influenza A virus [1]) is reported as 4.52 µM and the EC50 (Influenza A virus [2]) is reported as 2.23 µM.

Reference: ChEMBL document CHEMBL1671691 (Antimicrob Agents Chemother, 2010)
